Results of unrelated studies side by side (data: NIAID ChemDB).

All rows: growth or infection tests; organism: Mycobacterium tuberculosis

MIC bound: limit read from a one-dose screen. An empty or dashed field is not shown. Lines come from different laboratories, so protocols vary. A number after MIC or MFC names an inhibition level or a share of isolates. a–b is a range or a potency band. Inhibition is in % at the dose shown (toxicity tests: loss of growth or viability). ECn is the concentration giving n% inhibition of infection, replication or growth.

structure,endpoint,tested at,cells,strain,method,result
COc1ccc(/C=N/Nc2nc(C)c3c(n2)Nc2ccccc2NC3=O)cc1,MIC bound,-,-,H37Rv,BACTEC,>12.5 µg/mL
CCCOC(=S)SCN1C(=O)c2ccccc2S1(=O)=O,MIC,-,-,H37Rv,-,6.25 µg/mL
O=C1CCc2cc(N3CCN(C(=O)c4ccc5c(c4)OCO5)CC3)ccc21,MIC90,-,-,Wild type without biotin,turbidity,7.1 µM
CC1CCCN(C(=S)SCN2C(=O)c3ccccc3S2(=O)=O)C1,inhibition,6.25 µg/mL,-,H37Rv,-,98%
NNC(=O)c1ccncc1,MIC99,-,-,H37Rv,-,0.05 µg/mL
COC(=O)/C(=N\O)c1[nH]c2ccccc2c1[C@H]1SC[C@@H](O)C(c2ccc(O)c(OC)c2)(c2ncc[nH]2)S1,EC50,-,-,H37Rv,-,>12.5 µg/mL
C=Cc1cn(COCCO)c(=O)[nH]c1=O,EC50,-,-,H37Ra,-,>100 µg/mL
NC1=NNC2(C(N)=N1)c1ccccc1-c1ccccc12,MIC bound,-,-,H37Rv,BACTEC,>12.5 µg/mL
C[C@H]1COc2c(N3CC[C@@H](CNC4CC4)C3)c(F)cc3c(=O)c(C(=O)O)cn1c23,Mean MIC,-,-,Rifampicin-sensitive (7 strains pooled),-,0.9 µg/mL
COc1ccc2c(c1O)C13CCN(C)C(C2)C1CC(C)C(=O)C3,MIC bound,-,-,H37Rv,BACTEC,>12.5 µg/mL
CCCCCCCCCCCCSC[C@@H]1N[C@H](CO)[C@@H](O)[C@@H]1O,MIC,-,-,H37Ra,-,16 µg/mL
Cc1noc(-c2ccc(N3CCN(C(=O)c4cccc(Cl)c4)CC3)cc2)n1,MIC50,-,-,BioA underexpression strain,turbidity,>50 µM
COc1c(N2CCNC(C)C2)c(F)cc2c(=O)c(C(=O)O)cn(C3CC3)c12,Mean MIC,-,-,Rifampicin-sensitive (7 strains pooled),-,0.2 µg/mL
Cc1ccc(/C=C/C(=O)NN)cc1,MIC,-,-,BCG,-,5 µg/mL
O=C(O)C(=O)O.O=C1CN(CCN2CCCCC2)CC(=O)N2CCCCN12,MIC bound,-,-,H37Rv,BACTEC,>12.5 µg/mL
CC1COc2c(N3CCN(C)CC3)c(F)cc3c(=O)c(C(=O)O)cn1c23,MIC90,-,-,22 isolates,-,1 µg/mL
[N-]=[N+]=CC(=O)OC[C@@H]1NC(=O)[C@H](COC(=O)C=[N+]=[N-])NC1=O,inhibition,12.5 µg/mL,-,H37Rv,BACTEC,9%
CC1COc2c(N3CCN(C)CC3)c(F)cc3c(=O)c(C(=O)O)cn1c23,MIC90,-,-,-,-,0.5–2.4 µg/mL
O=Cc1cn(CCCCCn2cc(C=O)c3ccccc32)c2ccccc12,inhibition,12.5 µg/mL,-,H37Rv,BACTEC,3%
Cn1nnnc1SCC1=C(C(=O)O)N2C(=O)[C@@H](NC(=O)[C@H](O)c3ccccc3)[C@H]2SC1,MIC,-,-,16 strains,-,400–600 µg/mL
CC[C@H]1OC(=O)[C@H](C)[C@@H](O[C@H]2C[C@@](C)(OC)[C@@H](O)[C@H](C)O2)[C@H](C)[C@@H](O[C@@H]2O[C@H](C)C[C@H](N(C)C)[C@H]2O)[C@](C)(OC)C[C@@H](C)C(=O)[C@H](C)[C@@H](O)[C@]1(C)O,MIC,-,-,Isolate 33,-,0.5 µg/mL
COC(=O)Cc1cc(C2C3CC4CC(C3)CC2C4)nc2ccccc12,MIC,-,-,H37Rv,-,>6.25 µg/mL
CCCCCCCCCCC#Cc1cn(COC(CO)CO)c(=O)[nH]c1=O,EC50,-,-,H37Ra,-,10 µg/mL
NNC(=O)c1ccncc1,MIC,-,-,19 isolates drug-susceptible,-,0.1 µg/mL
CC1CCN(C(=S)SCN2C(=O)c3ccccc3S2(=O)=O)CC1,inhibition,6.25 µg/mL,-,H37Rv,-,100%
CCC(=O)N1CCN(c2ccc(C(C)=O)cc2)CC1,MIC50,-,-,BioA overexpression strain,turbidity,>50 µM
COC(=O)c1cc(C2C3CC4CC(C3)CC2C4)nc2c(C3C4CC5CC(C4)CC3C5)cccc12,inhibition,6.25 µg/mL,-,H37Rv,-,1%
CC(C)c1ccc(NC(=S)c2cccc([N+](=O)[O-])c2)cc1,MIC,-,-,My 331/88,-,62.5 µM
O=C1N(c2ccccc2)C(=Nc2ccccc2)C(=Nc2ccccc2)N1c1ccccc1,inhibition,12.5 µg/mL,-,H37Rv,BACTEC,18%
CC(C)c1ccc(NC(=S)c2ccccc2)cc1,MIC,-,-,My 331/88,-,62.5 µM
CCCCCCCCN1[C@H](CO)[C@@H](O)[C@H](O)[C@@H]1CO,MIC,-,-,H37Ra,-,>128 µg/mL
COC(=O)c1ccc2c(C3CCCC3)cccc2n1,MIC,-,-,H37Rv,-,2 µg/mL
COC(=O)C1(C)CCCC2(C)c3ccc(C(C)C)cc3C(OO)CC12,inhibition,12.5 µg/mL,-,H37Rv,BACTEC,95%
NC[C@H]1OB2OCCOC3C=CC(c4cccs4)=C1C23,EC50,-,-,H37Rv,resazurin / fluorescence,40.1 µM
CCOC(=O)C1=C(C)NC(=S)NC1c1ccccc1,EC50,-,-,H37Rv,-,>10 µg/mL
O=C1c2ccccc2S(=O)(=O)N1CSC(=S)N1CCCCC1,MIC,-,-,H37Rv,-,1.56 µg/mL
C[C@@H]1C[C@]23CCC4[C@]5(C)CCC[C@]4(C)C2CC[C@]1(C3)OC(=O)CCCCCCCC(=O)O[C@H]1CC2[C@@]3(CCC4[C@@](C)(CCC[C@]42C)COCCCOC(=O)CC(=O)OCCCOC5)C[C@@H]1[C@@H](C)C3,MIC99,-,-,H37Rv,BACTEC / radiometric,20 µg/mL
NCCCNCCCCNC(=O)C(O)NC(=O)CCCCCCN=C(N)N,MIC,-,-,H37Rv,BACTEC,≥12.5 µg/mL
CCOC(=O)Cc1cc(C2CCCC2)nc2c(C3CCCC3)cccc12,MIC,-,-,H37Rv,-,4 µg/mL
CCOc1cc(OCC)c(OCC)cc1/C=C1\N=C(c2ccccc2)OC1=O,inhibition,12.5 µg/mL,-,H37Rv,BACTEC,9%
C[C@@H]1C[C@]23CCC4[C@](C)(CCC[C@]4(C)C(=O)O)C2CC[C@@]1(OC(=O)CCCCCCCCC(=O)O[C@H]1CC2[C@@]4(CCC5[C@@]2(C)CCC[C@@]5(C)C(=O)O)C[C@@H]1[C@@H](C)C4)C3,MIC,-,-,H37Rv,BACTEC,20 µg/mL
N#Cc1cccc(/C=C/C(=O)NN)c1,MIC,-,-,BCG,-,5 µg/mL
C[C@]12CC/C(=N/NC(=O)c3ccncc3)C[C@@H]1CC[C@@H]1[C@@H]2CC[C@]2(C)[C@@H](O)CC[C@@H]12,inhibition,6.25 µg/mL,-,H37Rv,resazurin,98%
CCOC(=O)C1=C(C)NC(C)=C(C(=O)OCC)C1c1ccc(OC)cc1,EC50,-,-,H37Rv,-,>10 µg/mL
CC(C)(C)Cc1cssc1=S,inhibition,12.5 µg/mL,-,H37Rv,BACTEC,17%
C=Cc1cn(COC(CO)CO)c(=O)[nH]c1=O,EC50,-,-,H37Ra,-,>100 µg/mL
CC(C)=CC/C(C)=C/CN1[C@H](CO)[C@@H](O)[C@H](O)[C@@H]1CO,MIC,-,-,H37Ra,-,64 µg/mL
CN1S(=O)(=O)N(C)P12(N=P(CP(=NP13(N(C)S(=O)(=O)N1C)N(C)S(=O)(=O)N3C)(c1ccccc1)c1ccccc1)(c1ccccc1)c1ccccc1)N(C)S(=O)(=O)N2C,MIC,-,-,H37Rv,BACTEC,≥12.5 µg/mL
NNC(=O)/C=C/c1ccccc1Cl,MIC,-,-,BCG,-,20 µg/mL
CCCCCCCCCSC[C@@H]1N[C@H](CO)[C@@H](O)[C@@H]1O,MIC,-,-,H37Ra,-,32–128 µg/mL
CCCC(=O)N1CCN(c2ccc(C(C)=O)cc2)CC1,MIC50,-,-,BioA underexpression strain,turbidity,>50 µM
CCOC(=O)C1=C(C)NC(=O)NC1c1ccccc1,EC50,-,-,H37Rv,-,>10 µg/mL
CCCCCCCCCCCCS(=O)C[C@@H]1N[C@H](CO)[C@@H](O)[C@@H]1O,MIC,-,-,H37Ra,-,32–64 µg/mL
COC(=O)c1c(C2CCCCC2)nc2ccccc2c1C1CCCCC1,MIC,-,-,H37Rv,-,6.25 µg/mL
C=C1C2CC3C4N5C[C@@]6(C)CCC[C@@]47[C@@H]([C@@H]2O)C3(C[C@@]5(O)[C@@H]67)[C@H]1O,MIC bound,-,-,H37Rv,BACTEC,>12.5 µg/mL
COc1ccccc1/C=C/C(=O)NN,MIC,-,-,BCG,-,20 µg/mL
CN1Cc2cc(N3CCN(C(=O)c4cccc(Cl)c4)CC3)ccc2C1=O,MIC90,-,-,BioA overexpression strain,turbidity,>50 µM
CC[C@H]1OC(=O)[C@H](C)[C@@H](O[C@H]2C[C@@](C)(OC)[C@@H](OC(C)=O)[C@H](C)O2)[C@H](C)[C@@H](O[C@@H]2O[C@H](C)C[C@H](N(C)C)[C@H]2O)C(C)(O)C[C@@H](C)/C(=N\OCCCC2CCCCC2)[C@H](C)[C@@H](O)[C@]1(C)O,MIC,-,-,6,-,1.56 µg/mL
O=C(c1ccncc1)n1nc(-c2ccccc2)c(N=Nc2nc3ccc([N+](=O)[O-])cc3s2)c1-c1ccccc1,MIC,-,VERO,H37Rv,-,0.39 µg/mL
C[C@@H]1CN(c2c(F)c(N)c3c(=O)c(C(=O)O)cn(C4CC4)c3c2F)C[C@H](C)N1,MIC50,-,-,-,-,0.25 µg/mL
CCCCc1ccc(NC(=S)c2cccc([N+](=O)[O-])c2)cc1,MIC,-,-,My 331/88,-,32 µM
CCC(CO)NC[C@@H]1N[C@H](CO)[C@@H](O)[C@@H]1O,MIC,-,-,H37Ra,-,>128 µg/mL
CCCCCC#Cc1cn(COCCO)c(=O)[nH]c1=O,EC50,-,-,H37Ra,-,>100 µg/mL
C/C(=N\Nc1cc(C)c2cc(C)ccc2n1)c1ccccn1,MIC,-,VERO,H37Rv,-,6.25 µg/mL
CCCCCCCCCCCCSC[C@H]1[C@@H](O)[C@H](O)[C@@H](CO)N1Cc1ccccc1,MIC,-,-,H37Ra,-,64–128 µg/mL
Cc1occc1C(=S)Nc1ccc(Cl)c(C(=O)OCC(F)(F)F)c1,inhibition,12.5 µg/mL,-,H37Rv,BACTEC,0%
CC(=O)c1ccc(N2CCN(C(=O)c3cncc(Cl)c3)CC2)cc1,MIC50,-,-,Wild type without biotin,turbidity,>50 µM
NNC(=O)/C=C/c1ccccc1,MIC,-,-,BCG,-,1 µg/mL
CCOC(=O)C1=C(C)NC(=S)NC1c1ccc(OC)cc1,EC50,-,-,H37Rv,-,>10 µg/mL
O=C(O)c1ccncc1,MIC,-,-,CF74,resazurin,>25 µg/mL
Nc1ccc2[se]nc3c2c1C(=O)c1ccccc1-3,MIC,-,-,H37Rv,BACTEC,12.5 µg/mL
CCCCCCc1ccc(Oc2ccccc2)c(O)c1,MIC99,-,-,HN335,-,3.7 µg/mL
CC[C@H](C)/C=C(C)/C=C/C(=O)CC1=C(C=O)C(O)C(C)C(O)C1,EC50,-,-,-,visual reading,50 µg/mL
CCCCOC(=S)SCN1C(=O)c2ccccc2S1(=O)=O,MIC,-,-,H37Rv,-,6.25 µg/mL
Cn1nnnc1-c1ccc(N2CCN(C(=O)c3cccc(Cl)c3)CC2)cc1,MIC50,-,-,Wild type without biotin,turbidity,>50 µM
C[C@H]1COc2c(N3CC[C@H](N(C)C)C3)c(F)cc3c(=O)c(C(=O)O)cn1c23,Mean MIC,-,-,Rifampicin-sensitive (7 strains pooled),-,3 µg/mL
COC(=O)c1cc2ccccc2nc1C1CCCC1,inhibition,6.25 µg/mL,-,H37Rv,-,28%
CC(=O)c1ccc(-c2cn(Cc3cccc(Cl)c3)nn2)cc1,MIC50,-,-,BioA overexpression strain,turbidity,>50 µM
CO/N=C(\C(=O)N[C@@H]1C(=O)N2C(C(=O)O)=C(CSc3nc(=O)c(=O)[nH]n3C)CS[C@H]12)c1csc(N)n1,MIC,-,-,16 strains,-,800–1600 µg/mL
OCCNCCN1CCN(CCCN2c3ccccc3Sc3ccc(C(F)(F)F)cc32)CC1,MIC bound,-,-,H37Rv,BACTEC,≤12.5 µg/mL
COc1cccc(C(=S)Nc2ccc(C(C)C)cc2)c1,MIC,-,-,My 331/88,-,32 µM
Cc1c(C)[n+](=O)c2ccccc2n1[O-],MIC,-,-,H37Rv,BACTEC,≥12.5 µg/mL
C[C@H]1COc2c(N3C[C@@H](N)C(C)(C)C3)c(F)cc3c(=O)c(C(=O)O)cn1c23,Mean MIC,-,-,Rifampicin-sensitive (7 strains pooled),-,1.4 µg/mL
CC(C)OC(=S)SCN1C(=O)c2ccccc2S1(=O)=O,inhibition,6.25 µg/mL,-,H37Rv,-,100%

The last 6 rows once more:

structure	endpoint	tested at	cells	strain	method	result
CO/N=C(\C(=O)N[C@@H]1C(=O)N2C(C(=O)O)=C(CSc3nc(=O)c(=O)[nH]n3C)CS[C@H]12)c1csc(N)n1	MIC	-	-	16 strains	-	800–1600 µg/mL
OCCNCCN1CCN(CCCN2c3ccccc3Sc3ccc(C(F)(F)F)cc32)CC1	MIC bound	-	-	H37Rv	BACTEC	≤12.5 µg/mL
COc1cccc(C(=S)Nc2ccc(C(C)C)cc2)c1	MIC	-	-	My 331/88	-	32 µM
Cc1c(C)[n+](=O)c2ccccc2n1[O-]	MIC	-	-	H37Rv	BACTEC	≥12.5 µg/mL
C[C@H]1COc2c(N3C[C@@H](N)C(C)(C)C3)c(F)cc3c(=O)c(C(=O)O)cn1c23	Mean MIC	-	-	Rifampicin-sensitive (7 strains pooled)	-	1.4 µg/mL
CC(C)OC(=S)SCN1C(=O)c2ccccc2S1(=O)=O	inhibition	6.25 µg/mL	-	H37Rv	-	100%